Data source: PubChem BioAssay AID504761 (Drosophila RNAi Screening Center, 2011)
The deposit covers about 22,000 reagents; below is an unselected part of those with a known target gene and a result. Over the whole deposit, 116 (0.52%) got an active call. 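Calls depend on retest data that are not deposited; infection was ranked per plate without normalising between plates; the unit of the infection score is not given.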 The raw values are shown without normalisation. Not stated in the record: the amount of reagent, the time to read-out.

Screen: 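Fly genes whose silencing reduces dengue virus type 2 infection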 (primary screen)
Cell system: D.Mel-2 cells from Drosophila
Reagents: long dsRNA against Drosophila genes
Conditions: infection with dengue virus type 2; dose and infection time not stated
Measurement: 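Per well on two replicate plates, imaging gave the percent of cells positive for viral envelope protein, ranked by infection, and a nuclear count of cells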
Scale: infection score: higher = more virus-infected cells; cell count: higher = more cells in the well
Active means: 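Very low infection ranking in both replicate wells (chance probability at most 0.065), then a retest showing infection dropped 1.5-fold or more at p below 0.05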
Meaning of the calls: active = confirmed: knock-down lowers infection; inactive = not picked or not confirmed

With Sec16 (Secretory 16) [DRSC19788], how do the results read?
infection score, replicate 2: 15.2; cell count, replicate 1: 444; cell count, replicate 2: 4264; outcome: inactive

With beat-IIb (beaten path IIb) [DRSC13219], what does the deposit list?
infection score, replicate 1: 6.59; infection score, replicate 2: 5.84; cell count, replicate 1: 5444; cell count, replicate 2: 5271; outcome: inactive

What is on record for beat-IIb (beaten path IIb) [DRSC14816]?
infection score, replicate 1: 1.49; infection score, replicate 2: 14.6; cell count, replicate 1: 6315; cell count, replicate 2: 6358; outcome: inactive

With beat-IIb (beaten path IIb) [DRSC15546], what was measured?
infection score, replicate 1: 20.4; infection score, replicate 2: 33.3; cell count, replicate 1: 7150; cell count, replicate 2: 5470; outcome: inactive

Which result is listed for CG13884 [DRSC08354]?
infection score, replicate 1: 1.44; infection score, replicate 2: 7.23; cell count, replicate 1: 6333; cell count, replicate 2: 6102; outcome: inactive

How did the screen score Adgf-C (Adenosine deaminase-related growth factor C) [DRSC16473]?
infection score, replicate 1: 6.18; infection score, replicate 2: 1.31; cell count, replicate 1: 5908; cell count, replicate 2: 6810; outcome: inactive

For Adgf-C (Adenosine deaminase-related growth factor C) [DRSC27008], what was measured?
infection score, replicate 1: 6.37; infection score, replicate 2: 8.27; cell count, replicate 1: 6560; cell count, replicate 2: 6650; outcome: inactive

What did the screen give for CG42709 [DRSC10277]?
infection score, replicate 1: 9.24; infection score, replicate 2: 11.2; cell count, replicate 1: 6777; cell count, replicate 2: 7119; outcome: inactive

For CG42709 [DRSC25693], how do the results read?
infection score, replicate 1: 1.71; infection score, replicate 2: 5; cell count, replicate 1: 6018; cell count, replicate 2: 6181; outcome: inactive

What did the screen give for Sr-CI (Scavenger receptor class C, type I) [DRSC00790]?
infection score, replicate 1: 18.4; infection score, replicate 2: 21; cell count, replicate 1: 6270; cell count, replicate 2: 5833; outcome: inactive

Which result is listed for Sr-CI (Scavenger receptor class C, type I) [DRSC23942]?
infection score, replicate 1: 2.48; infection score, replicate 2: 1.93; cell count, replicate 1: 6464; cell count, replicate 2: 6418; outcome: inactive

How did the screen score CG6345 [DRSC16024]?
infection score, replicate 1: 16.8; infection score, replicate 2: 19.9; cell count, replicate 1: 2676; cell count, replicate 2: 4605; outcome: inactive

What did the screen give for CG13359 [DRSC18539]?
infection score, replicate 1: 7.26; infection score, replicate 2: 6.41; cell count, replicate 1: 4423; cell count, replicate 2: 6861; outcome: inactive

Which result is listed for CG13359 [DRSC26791]?
infection score, replicate 1: 9.26; infection score, replicate 2: 17.7; cell count, replicate 1: 7330; cell count, replicate 2: 6545; outcome: inactive

With wam (wampa) [DRSC15171], how do the results read?
infection score, replicate 1: 11; infection score, replicate 2: 2.53; cell count, replicate 1: 5403; cell count, replicate 2: 7103; outcome: inactive

With PPYR1 (Protein phosphatase Y regulator 1) [DRSC19612], how do the results read?
infection score, replicate 1: 12.5; infection score, replicate 2: 7.86; cell count, replicate 1: 6204; cell count, replicate 2: 6670; outcome: inactive

What is on record for PPYR1 (Protein phosphatase Y regulator 1) [DRSC27134]?
infection score, replicate 1: 16.7; infection score, replicate 2: 5.96; cell count, replicate 1: 6202; cell count, replicate 2: 6256; outcome: inactive

Which result is listed for CG14292 [DRSC14772]?
infection score, replicate 1: 0.39; infection score, replicate 2: 1.42; cell count, replicate 1: 6617; cell count, replicate 2: 6140; outcome: inactive

With dve (defective proventriculus) [DRSC04680], what does the deposit list?
infection score, replicate 1: 15; infection score, replicate 2: 8.35; cell count, replicate 1: 5349; cell count, replicate 2: 1857; outcome: inactive

How did the screen score dve (defective proventriculus) [DRSC28692]?
infection score, replicate 1: 7.81; infection score, replicate 2: 8.26; cell count, replicate 1: 5070; cell count, replicate 2: 5195; outcome: inactive

With CG17376 [DRSC21717], what was measured?
infection score, replicate 1: 5.68; infection score, replicate 2: 11.2; cell count, replicate 1: 6765; cell count, replicate 2: 5622; outcome: inactive

What is on record for SCOT (Succinyl-CoA:3-ketoacid CoA transferase) [DRSC08186]?
infection score, replicate 1: 12.4; infection score, replicate 2: 5.75; cell count, replicate 1: 6639; cell count, replicate 2: 6347; outcome: inactive

Which result is listed for SCOT (Succinyl-CoA:3-ketoacid CoA transferase) [DRSC26521]?
infection score, replicate 1: 2.63; infection score, replicate 2: 6.49; cell count, replicate 1: 6271; cell count, replicate 2: 5518; outcome: inactive

What is on record for CG15255 [DRSC01869]?
infection score, replicate 1: 7.16; infection score, replicate 2: 2.7; cell count, replicate 1: 6200; cell count, replicate 2: 6639; outcome: inactive

For CG15255 [DRSC29808], what does the deposit list?
infection score, replicate 1: 3.61; infection score, replicate 2: 5.56; cell count, replicate 1: 6316; cell count, replicate 2: 5940; outcome: inactive

What is on record for rump (rumpelstiltskin) [DRSC16480]?
infection score, replicate 1: 11.9; infection score, replicate 2: 15.2; cell count, replicate 1: 5331; cell count, replicate 2: 5451; outcome: inactive

For CG8490 [DRSC07194], what was measured?
infection score, replicate 1: 22.7; infection score, replicate 2: 11.7; cell count, replicate 1: 5185; cell count, replicate 2: 5714; outcome: inactive

Which result is listed for CG8490 [DRSC27075]?
infection score, replicate 1: 11.9; infection score, replicate 2: 18.5; cell count, replicate 1: 6440; cell count, replicate 2: 5782; outcome: inactive

Part of the list above, reformatted:
CG17376 [DRSC21717]
- infection score, replicate 1: 5.68
- infection score, replicate 2: 11.2
- cell count, replicate 1: 6765
- cell count, replicate 2: 5622
- outcome: inactive

SCOT (Succinyl-CoA:3-ketoacid CoA transferase) [DRSC08186]
- infection score, replicate 1: 12.4
- infection score, replicate 2: 5.75
- cell count, replicate 1: 6639
- cell count, replicate 2: 6347
- outcome: inactive

SCOT (Succinyl-CoA:3-ketoacid CoA transferase) [DRSC26521]
- infection score, replicate 1: 2.63
- infection score, replicate 2: 6.49
- cell count, replicate 1: 6271
- cell count, replicate 2: 5518
- outcome: inactive
